Results of unrelated studies side by side (data: NIAID ChemDB).

Common to all: tests on isolated targets; organism: Hepatitis C virus

Rows are shuffled and stem from different studies. Percent inhibition refers to the dose given; in toxicity tests it is the harm to the cells. ICn: concentration for n% inhibition. Blank or dashed fields: not listed here. a–b is a range or a potency band.

SMILES	protein	endpoint	tested at	value
O=C(O)c1cnn2c(C3CCCCC3)c(-c3ccc(C(F)(F)F)cc3)cnc12	RNA-dependent RNA polymerase	IC50		>10 µM
O=C(O)c1nc(-c2ccccc2NS(=O)(=O)c2cc(C(F)(F)F)cc(C(F)(F)F)c2)[nH]c(=O)c1O	HCV polymerase	IC50		<100 µM
CNC(=O)c1c(-c2ccc(F)cc2)oc2cc(NC)c(OC(C)C)cc12	Nonstructural protein 5B	IC50		≤0.5 µM
NC(=O)CNC(=O)c1ccc(-c2ccccc2)c(-c2ccc3cc(-c4nc5cc(C(=O)O)ccc5n4C4CCCCC4)ccc3n2)c1	NS5B polymerase	inhibition	33 µM	99.2%
O=C(NC(Cc1c[nH]c2ccccc12)C(=O)O)c1cnn2c(C3CCCCC3)c(-c3ccc(F)c(F)c3)cnc12	RNA-dependent RNA polymerase	IC50		<1 µM
O=C(O)c1ccc2c(c1)nc(-c1ccc3nc(-c4ccccc4Br)ccc3c1)n2C1CCCCC1	NS5B polymerase	inhibition	33 µM	94.18%
COc1cc(-c2cc(-c3ccc(Oc4cccc(Cl)c4)cc3)nc3cc(C(=O)O)nn23)ccc1Cl	RNA-dependent RNA polymerase	IC50		>10 µM
O=C(O)c1nc(-c2sccc2CCO)[nH]c(=O)c1O	HCV polymerase	IC50		<25 µM
Cc1ccc2cc(-c3nc4cc(C(=O)NC(Cc5c[nH]c6ccc(O)cc56)C(=O)O)ccc4n3C3CCCCC3)ccc2n1	NS5B polymerase	inhibition	100 µM	98.22%
C[C@H](NC(=O)Nc1cccc(-c2nc(C(=O)O)c(O)c(=O)[nH]2)c1)c1cccc2ccccc12	HCV polymerase	IC50		<100 µM
O=C(Nc1cc(-c2ccccc2)sc1C(=O)O)Oc1ccc(Cl)cc1	NS3 ATPase	IC50		5–20 µM
CNC(=O)c1c(-c2ccc(F)cc2)oc2cc(N(C)S(C)(=O)=O)c(OCc3ccc(S(C)(=O)=O)cc3)cc12	Nonstructural protein 5B	IC50		≤0.5 µM
CC(=O)N(Cc1ccccc1)c1cc(-c2ccccc2)sc1C(=O)O	NS3 ATPase	IC50		<5 µM
O=C(O)c1nc(-c2ccccc2Br)[nH]c(=O)c1O	HCV polymerase	IC50		<100 µM
O=C(O)CC(NC(=O)c1ccc2c(c1)nc(-c1ccc3nc(-c4ccccc4)cnc3c1)n2C1CCCCC1)C(=O)O	NS5B polymerase	inhibition	33 µM	75.71%
CNC(=O)c1c(-c2ccc(F)cc2)oc2cc(N(C)S(C)(=O)=O)c(OCc3ccc(C(=O)O)cc3)cc12	Nonstructural protein 5B	IC50		≤0.5 µM
O=C(O)c1cc2ncc(-c3ccc(Oc4ccccc4)cc3)c(-c3ccccc3)n2n1	RNA-dependent RNA polymerase	IC50		>10 µM
O=C(O)c1ccc2c(c1)nc(-c1ccc3nc(-c4cccnc4)ccc3c1)n2C1CCCCC1	NS5B polymerase	inhibition	100 µM	89.31%
COC(=O)c1cc2ncc(-c3ccc(Oc4ccccc4)cc3)c(-c3ccccc3)n2n1	RNA-dependent RNA polymerase	IC50		>10 µM
CC1CCC(C(=O)N(C)c2cc(-c3ccccc3)sc2C(=O)O)CC1	NS3 ATPase	IC50		<5 µM
COC(=O)c1nc(-c2ccc(S(=O)(=O)Nc3ccccc3Oc3ccc(Cl)cc3Cl)cc2)[nH]c(=O)c1O	HCV polymerase	IC50		<50 µM
Cc1ccccc1S(=O)(=O)Nc1cc(-c2ccc(C(=O)O)cc2)sc1C(=O)O	NS3 ATPase	IC50		<5 µM
CC(C)=CCCc1c(-c2ccc(OCc3ccccc3)cc2)nc2cc(C(=O)O)[nH]n2c1=O	RNA-dependent RNA polymerase	IC50		1–10 µM
Cc1nc(C)c(-c2ccc3cc(-c4nc5cc(C(=O)O)ccc5n4C4CCCCC4)ccc3n2)s1	NS5B polymerase	inhibition	100 µM	102%
O=C(O)c1nc(-c2ccccc2[N+](=O)[O-])[nH]c(=O)c1O	HCV polymerase	IC50		<100 µM
O=C(NC(Cc1ccc(O)cc1)C(=O)O)c1ccc2c(c1)nc(-c1ccc3nc(-c4ccccc4)cnc3c1)n2C1CCCCC1	NS5B polymerase	inhibition	33 µM	96.88%
CN(C(=O)c1sc2ccccc2c1Cl)c1cc(-c2ccccc2)sc1C(=O)O	NS3 ATPase	IC50		5–20 µM
Cc1cc(-c2ccccc2Br)nc2ccc(-c3nc4cc(C(=O)O)ccc4n3C3CCCCC3)cc12	NS5B polymerase	inhibition	33 µM	97.79%
COC(=O)c1cc2nc(-c3ccc(OC)cc3)cc(C(F)(F)F)n2n1	RNA-dependent RNA polymerase	IC50		>10 µM
CNC(=O)c1c(-c2ccc(F)cc2)oc2cc(N(C)S(C)(=O)=O)c(OCc3ccc4c(c3)C(=O)OC(C)(C)O4)cc12	Nonstructural protein 5B	IC50		≤0.5 µM
O=C(O)c1nc(-c2sccc2NC(=O)C(NCc2ccccc2)c2ccccc2)[nH]c(=O)c1O	HCV polymerase	IC50		<25 µM

A second listing of 2 rows from above:

SMILES	protein	endpoint	tested at	value
O=C(O)c1cnn2c(C3CCCCC3)c(-c3ccc(C(F)(F)F)cc3)cnc12	RNA-dependent RNA polymerase	IC50		>10 µM
C[C@H](NC(=O)Nc1cccc(-c2nc(C(=O)O)c(O)c(=O)[nH]2)c1)c1cccc2ccccc12	HCV polymerase	IC50		<100 µM